Tests used:
[1] = test system: CBD1 peptide and CBD1- and CBM-based peptides; experiment: Immunization of mice and ELISA of immune sera; type: in vivo, BALB/c mice; settings: groups of 6 mice, s.c., CFA, ten days after 5th immunization; OD450 ± s.d. at 16,000-fold dilution
[2] = test system: CBD1 (C18K) and the Tet peptide; experiment: Immunization of macaques and ELISA of immune sera; type: in vivo, cynomolgus macaques (Macaca fascicularis); settings: macaques, before this immunization; dilution giving OD ≧0.1
HIV-1 BZ 167 = settings: pooled mouse sera of each group
primary HIV-1 isolate = settings: sera 4 weeks after the third immunization, 200- and 400-fold dilution

AQYIKANSKFIGITELKKCKSLEQIWNNMTWMQWDK
ELISA titer against C17K [1]: 0.58 ± 0.46 | Tet-ELISA titer: Before [2]: <200 | % inhibition of HIV-1 at 200-fold dilution (HIV-1 BZ 167; HIV-1 BZ 167, p24 at 5 days): 30% | Neutralizing activity ID50 (HIV-1 BZ 167; HIV-1 BZ 167, p24 at 5 days post infection): 100-fold | macaques whose immune sera manifested HIV-1 neutralizing activity (primary HIV-1 isolate): one out of the three

Source: patent US8790898B2 (priority 2008, dated 2014)
